Data as given in paper PMC9150099, “Preventing Influenza A Virus Infection by Mixed Inhibition of Neuraminidase and Hemagglutinin by Divalent Inhibitors” (Journal of Medicinal Chemistry, 2022).

How the values were obtained:
[1] = system: Neth09H1N1 virus infection of MDCK cells; assay: 4-day CPE reduction assay on MDCK cells; format: cell-based, Influenza virus A/Netherlands/602/2009 (Neth09H1N1)
[2] = biological target: NA of the whole Neth09H1N1 virus (Influenza A virus, UniProt C3PSV3)
[3] = biological target: recombinant soluble tetrameric N1 and N9 proteins (neuraminidase)

`CCC(CCCCc1cn(C2OC(CO)C(n3cc(CCCCC(CC)OC4OC(C(=O)O)=CC(O)C4NC(C)=O)nn3)C(O)C2O)nn1)OC1OC(C(=O)O)=CC(O)C1NC(C)=O` (stereo not shown) was tested. Which “CPE reduction assay on MDCK cells, lowest concentration that inhibits CPE formation” value [1] did it give?
Its value is over 5 µM.

What about the “CPE assay” value ([1]; supplementary CSV) of the same compound?
The value was over 5 mM.

What about the pIC50 [2] of the same compound?
Its pIC50 is 5.82.

What about the pIC50 [3] of the same compound?
Its pIC50 is 5.28.

pIC50: −log10 of the molar value. The structures given here were assigned with low confidence; some may be wrong.
